Results of unrelated studies side by side (data: NIAID ChemDB).

Common to all: tests in culture; agent: Mycobacterium tuberculosis

ECn: concentration that inhibits the pathogen or its effect by n%.

compound	tested at	read by	measure	strain	result
NC(=O)c1cnn2ccn([C@@H]3O[C@H](CO)[C@@H](O)[C@H]3O)c12		BACTEC	MIC bound	H37Rv	>12.5 µg/mL
OCCCCCNCCNCCCCc1ccccc1			MIC		25 µM
COc1ccc(C2C3C(=O)OCCOC(=O)C3C2c2ccc(OC)c(OC)c2)cc1OC		BACTEC	MIC	H37Rv	≥12.5 µg/mL
CCCCCCCCCCCCCC(=O)O			MIC	H37Rv	25 µg/mL
Nc1nn2c(C(Br)Br)cc(C(Br)Br)nc2c1[N+](=O)[O-]	6.25 µg/mL	resazurin	inhibition	H37Rv	14%
CCOC(=O)Nc1cc(NC(CC)C(=O)c2ccccc2)c([N+](=O)[O-])c(N)n1			EC50	H37Rv	>12.5 µg/mL
CCN(CC)c1ccc(N=C2C=C(Cl)C(=O)c3ncccc32)c(C)c1		BACTEC	MIC bound	H37Rv	≤12.5 µg/mL
c1ccc(OCCCOc2ccccc2)cc1			MIC	H37Rv	>100 µg/mL
CCCCCC/C=C/CCCCCCCCCc1cc(O)cc(OC)c1O	12.5 µg/mL	BACTEC	inhibition	H37Rv	-5%
O=[N+]([O-])c1ccc(N=Nc2ccc3ccccc3c2O)cc1			MIC	H37Rv	>100 µg/mL
COc1ccc(C(=O)/C=C/c2ccccc2)c(O)c1			EC50		<12.5 µg/mL
CCCCC(CC)CN1CN(CC(CC)CCCC)CC(C)(NCCNCc2ccccc2)C1			MIC		25 µM
O=C(O)CONC(=O)c1ccccc1			MIC	H37Rv	>100 µg/mL
COCC(O)CNCCN		resazurin	MIC bound	H37Rv	>6.25 µg/mL
c1ccc(NCCNCCNC2CCCCCCC2)cc1			MIC		50 µM
COc1ccc(-c2oc3cc(OC)cc(OC)c3c(=O)c2-c2c(-c3ccc(OC)cc3)oc3cc(OC)cc(OC)c3c2=O)cc1			EC50		>12.5 µg/mL
NC[C@H]1O[C@H](O[C@H]2[C@H](O)[C@@H](O[C@H]3O[C@H](CO)[C@@H](O)[C@H](N)[C@H]3O)[C@H](N)C[C@@H]2N)[C@H](O)[C@@H](O)[C@@H]1O			MIC	TN933 (CB)	32 µg/mL
CC(=O)NC1=CC(=O)C(=O)C=C1			MIC	H37Rv	>100 µg/mL
CCOC(=O)Nc1cc2[nH]c(=O)c(-c3ccccc3)nc2c(NC(c2ccccc2)c2ccccc2)n1			EC50	H37Rv	>12.5 µg/mL
N=C1SCC(=O)N1CC(=O)O			MIC	H37Rv	>100 µg/mL
CCCCC(CC)CN1CN(CC(CC)CCCC)CC(C)(NCCNCC(O)CO)C1			MIC		25 µM
COc1ccc(C(=O)/C=C/c2cccc(I)c2)c(O)c1			EC50		>12.5 µg/mL
CCOC(=O)Nc1cc(NC(c2ccc(Cl)cc2)c2ccc(Cl)cc2)c([N+](=O)[O-])c(N)n1	12.5 µg/mL		inhibition	H37Rv	46%
O=S(=O)(O)c1ccc2ncccc2c1			MIC	H37Rv	100 µg/mL
CCCCNC(=O)NC1CC(OC2CC(O)(C(C)=O)Cc3c(O)c4c(c(O)c32)C(=O)c2c(OC)cccc2C4=O)OC(C)C1O	12.5 µg/mL	BACTEC	inhibition	H37Rv	-8%
CCC(C)NCCNC[C@]1(C)CCC[C@]2(C)c3ccc(C(C)C)cc3CC[C@@H]12			MIC		12.5 µM
Cc1cc(C)c(CNC(=O)c2ccccc2)c(C)c1			MIC	H37Rv	50 µg/mL
Cc1cc2c(C(C)C)c(O)c(O)c(C=O)c2c(O)c1-c1c(C)cc2c(C(C)C)c(O)c(O)c(C=O)c2c1O		BACTEC	MIC	H37Rv	≥12.8 µg/mL
CN(CC(OC(=O)c1ccccc1)c1ccccc1)c1ccccc1.Cl			MIC	H37Rv	>100 µg/mL
COc1ccc(CNCCNCCC2=CCCCC2)cc1OC			MIC		50 µM
CN(C)c1ccc(/C=C/C(=O)c2ccccn2)cc1	12.5 µg/mL		inhibition	H37Rv	16%
Cc1ccccc1OCC(O)CO			MIC	H37Rv	>100 µg/mL
CC(=O)Nc1ccc(/C=C2\SC(=S)N(/C=C3\C(=O)N(c4ccccc4)N=C3C)C2=O)cc1	6.25 µg/mL	resazurin	inhibition	H37Rv	-23%
CCOC(=O)Nc1cc(NCC(=O)c2ccc(C)c(C)c2)c([N+](=O)[O-])c(N)n1			EC50	H37Rv	>12.5 µg/mL
CC1(C)[C@H]2CC[C@@H](CNCCNCCCN3CCCC3=O)[C@@H]1C2			MIC		50 µM
O=C(O)CNC(=O)CCCl			MIC	H37Rv	>100 µg/mL
COCC1OC(O[C@@H]2C3=C(C(C)C)CC[C@]3(C)/C=C3\[C@@H](CC[C@]3(O)COC)[C@@H](C)[C@H]2O)C(O)C2OC3OC12O[C@@]3(C)[C@@H]1CO1		BACTEC	MIC bound	H37Rv	>12.5 µg/mL
CC1CCCC(NCCNCC(c2ccccc2)c2ccccc2)C1C			MIC		18.8 µM
CCN(CC)c1ccc2nc3c4ccccc4c(=N)cc-3oc2c1			MIC	PAS-R	1.6 µg/mL
CCOC(=O)Nc1cc(N)c2[nH]c(=S)n(N)c2c1			EC50	H37Rv	>12.5 µg/mL
CN(C)NC1=NS(=O)(=O)c2cc3c(=O)n(C)[nH]c3cc2S1		resazurin	MIC bound	H37Rv	>6.25 µg/mL
OCCc1ccc2ccccc2n1			MIC	H37Rv	>100 µg/mL
O=C(c1ccc(Br)cc1)c1cnc2nc(-c3ccccc3)c(-c3ccccc3)nn12		BACTEC	MIC	H37Rv	12.5 µg/mL
Cc1ccc(CNCCNCc2ccco2)cc1			MIC		25 µM
CC(=O)NNc1nc(C)c(C(=O)NNC(=O)C(=O)Nc2ccc([N+](=O)[O-])cc2C#N)s1	6.25 µg/mL	resazurin	inhibition	H37Rv	23%
CCCCC(CC)CN1CN(CC(CC)CCCC)CC(C)(NCCNCCc2ccc(OC)c(OC)c2)C1			MIC		6.25 µM
CC(C)=CCC/C(C)=C/CNCCN1CC2(C)CC1CC(C)(C)C2			MIC		12.5 µM
COc1ccc(N=C2C(=Nc3ccc(OC)cc3)N(c3ccc(OC)cc3)C(=S)N2C)cc1	12.5 µg/mL	BACTEC	inhibition	H37Rv	52%
CO[C@H]1/C=C/O[C@@]2(C)Oc3c(C)c(O)c4c(=O)c(c5oc6cc(N7CCN(C(C)C)CC7)cc(=O)c6nc5c4c3=C2O)NC(=O)/C(C)=C\C=C\[C@H](C)[C@H](O)[C@@H](C)[C@@H](O)[C@@H](C)[C@H](OC(C)=O)[C@@H]1C			MBC	3125 (rifampin-sensitive)	0.05 µg/mL
O=C(Nc1nc2ccccc2[nH]1)c1ccc2ccccc2c1O			MIC	H37Rv	50 µg/mL
Fc1ccccc1CNCCNCc1ccco1			MIC		50 µM
COC(=O)CCCCC(=O)Nc1ccc(O)cc1			MIC	H37Rv	100 µg/mL
C1=C(CCNCCNCCCCc2ccccc2)CCCC1			MIC		12.5 µM
O=C(O)c1cc(I)c(O)c(I)c1			MIC	H37Rv	50 µg/mL
CO[C@H]1/C=C/O[C@@]2(C)Oc3c(C)c(O)c4c(=O)c(c5oc6cc(N7CCN(CC(C)C)CC7)cc(=O)c6nc5c4c3=C2O)NC(=O)/C(C)=C\C=C\[C@H](C)[C@H](O)[C@@H](C)[C@@H](O)[C@@H](C)[C@H](OC(C)=O)[C@@H]1C			MBC	3064 (rifampin-sensitive)	0.012 µg/mL
CCCCC(CC)CN1CN(CC(CC)CCCC)CC(C)(NCCNCc2ccccc2OCC)C1			MIC		12.5 µM
OC12CCCCC1Oc1ccc3ccccc3c12		BACTEC	MIC bound	H37Rv	>12.5 µg/mL
NC(=O)c1ccccc1			MIC	H37Rv	>100 µg/mL
CC(C)N=c1cc2n(-c3ccc(Cl)cc3)c3ccccc3nc-2cc1Nc1ccc(Cl)cc1		broth dilution / resazurin	MIC	MDR13	0.5 µg/mL
COc1cc2oc(-c3ccc(O)cc3O)c(CC=C(C)C)c(=O)c2c(O)c1/C=C/C(C)C		BACTEC	MIC bound	H37Rv	≤12.5 µg/mL
O=C(O)c1ccccc1-c1c(C(=O)O)cc(-c2ccccc2)nc1C(=O)O			MIC	H37Rv	>100 µg/mL
CN(C)CCNc1ccc(CO)c2oc3ccc(O)cc3c(=O)c12	12.5 µg/mL	BACTEC	inhibition	H37Rv	18%
CCCNCCNC[C@]1(C)CCC[C@]2(C)c3ccc(C(C)C)cc3CC[C@@H]12			MIC		12.5 µM
CC(NCCNCCc1ccccc1Cl)C12CC3CC(CC(C3)C1)C2			MIC		50 µM
O=S(=O)(O)c1cc(O)c2c(O)cc(S(=O)(=O)O)cc2c1			MIC	H37Rv	>100 µg/mL
NNC(=O)c1cc(I)c(N)c(I)c1		BACTEC	MIC bound	H37Rv	>12.5 µg/mL
Cc1cc(O)cc(C(=O)O)c1			MIC	H37Rv	>100 µg/mL
CCCCCNCCNCCc1ccccc1F			MIC		25 µM
Cc1ccc(S(=O)(=O)N/C(=C/C=C/c2ccccc2)C(=O)C(C)(C)C)cc1	12.5 µg/mL	BACTEC	inhibition	H37Rv	10%
O/N=C/CCOc1ccccc1			MIC	H37Rv	100 µg/mL

Repeating the final 9 entries:

compound,tested at,read by,measure,strain,result
CN(C)CCNc1ccc(CO)c2oc3ccc(O)cc3c(=O)c12,12.5 µg/mL,BACTEC,inhibition,H37Rv,18%
CCCNCCNC[C@]1(C)CCC[C@]2(C)c3ccc(C(C)C)cc3CC[C@@H]12,,,MIC,,12.5 µM
CC(NCCNCCc1ccccc1Cl)C12CC3CC(CC(C3)C1)C2,,,MIC,,50 µM
O=S(=O)(O)c1cc(O)c2c(O)cc(S(=O)(=O)O)cc2c1,,,MIC,H37Rv,>100 µg/mL
NNC(=O)c1cc(I)c(N)c(I)c1,,BACTEC,MIC bound,H37Rv,>12.5 µg/mL
Cc1cc(O)cc(C(=O)O)c1,,,MIC,H37Rv,>100 µg/mL
CCCCCNCCNCCc1ccccc1F,,,MIC,,25 µM
Cc1ccc(S(=O)(=O)N/C(=C/C=C/c2ccccc2)C(=O)C(C)(C)C)cc1,12.5 µg/mL,BACTEC,inhibition,H37Rv,10%
O/N=C/CCOc1ccccc1,,,MIC,H37Rv,100 µg/mL

Blank or dashed fields: not listed here. Percent inhibition refers to the dose given; in toxicity tests it is the harm to the cells. Neighbouring rows are from separate reports. MIC bound comes from a single tested concentration.